Test results taken from patent US20050186197A1, “Peptide inhibitors of beta lactamases” (published 2005).

Protein sequences, listed by entry. Tags and fused reporters are not part of them. Residues count along the entry.
UniProt P52699, 19-246 limits assumed: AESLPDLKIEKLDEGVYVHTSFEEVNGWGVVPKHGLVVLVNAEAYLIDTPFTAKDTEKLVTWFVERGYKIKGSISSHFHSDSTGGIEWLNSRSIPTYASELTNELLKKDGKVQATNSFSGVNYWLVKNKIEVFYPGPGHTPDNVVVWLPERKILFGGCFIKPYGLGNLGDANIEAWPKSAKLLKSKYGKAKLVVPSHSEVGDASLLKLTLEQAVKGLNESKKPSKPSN
UniProt P62593, 24-286 limits assumed: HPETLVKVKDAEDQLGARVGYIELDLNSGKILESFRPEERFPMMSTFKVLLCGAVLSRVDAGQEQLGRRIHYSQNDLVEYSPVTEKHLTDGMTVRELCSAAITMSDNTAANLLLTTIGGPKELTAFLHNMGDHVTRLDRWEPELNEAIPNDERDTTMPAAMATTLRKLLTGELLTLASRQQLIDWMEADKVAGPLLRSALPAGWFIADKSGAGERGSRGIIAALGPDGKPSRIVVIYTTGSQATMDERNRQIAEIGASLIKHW
UniProt P05364, 21-381 limits assumed: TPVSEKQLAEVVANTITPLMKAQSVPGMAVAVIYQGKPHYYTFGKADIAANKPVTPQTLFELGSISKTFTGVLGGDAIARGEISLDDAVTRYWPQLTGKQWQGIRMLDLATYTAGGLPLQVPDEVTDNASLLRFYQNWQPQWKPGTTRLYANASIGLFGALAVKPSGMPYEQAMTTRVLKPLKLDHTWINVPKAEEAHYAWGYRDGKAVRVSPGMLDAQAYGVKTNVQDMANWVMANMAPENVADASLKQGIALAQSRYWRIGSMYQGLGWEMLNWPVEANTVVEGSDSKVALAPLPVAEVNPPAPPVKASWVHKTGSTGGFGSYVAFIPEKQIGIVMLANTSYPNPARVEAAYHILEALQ

Columns and labels:
[1] = molecular target: class B zinc-metallo-β-lactamase IMP-1 (Serratia marcescens, UniProt P52699); test: β-lactamase inhibition assay, IMP-1; settings: concentrations up to 400 μm
TEM-1 β-lactamase [2] = molecular target: T1, TEM-1 β-lactamase (Escherichia coli, UniProt P62593); test: β-lactamase inhibition assay, TEM-1; settings: for Ki: read-out: Ki for inhibition of TEM-1 β-lactamase
[3] = molecular target: E. cloacae P99 β-lactamase (Enterobacter cloacae, UniProt P05364); test: β-lactamase inhibition assay, P99; settings: for Ki: read-out: Ki for inhibition of P99
TEM-1 β-lactamase [4] = molecular target: T1, TEM-1 β-lactamase; test: Mode of inhibition (Km and Vmax, double reciprocal plots), TEM-1
[5] = system: B. anthracis Bla1 β-lactamase; test: β-lactamase inhibition assay, Bla1; settings: for Ki for Bla1 lower than the Ki for inhibition of TEM-1 β-lactamase: Bla1 versus TEM-1; for Ki: read-out: Ki for inhibition of Bla1
Bla1 β-lactamase = test: Mode of inhibition (Km and Vmax, double reciprocal plots), Bla1
P99 β-lactamase = P99 β-lactamase (Enterobacter cloacae, UniProt P05364); test: Mode of inhibition (Km and Vmax, double reciprocal plots), P99
TEM-1 β-lactamase [6] = molecular target: T1, TEM-1 β-lactamase; test: SPOT array binding of TEM-1 β-lactamase-HRP to cellulose-bound peptides; settings: probed with TEM-1 β-lactamase conjugated to HRP; compared with RRGDYG control peptide

N=C(N)NCCC[C@H](NC(=O)[C@@H](N)CCCNC(=N)N)C(=O)NCC(=O)N[C@@H](Cc1c[nH]cn1)C(=O)N[C@@H](Cc1ccc(O)cc1)C(=O)N[C@@H](Cc1ccc(O)cc1)C(N)=O
inhibition of IMP-1 [1]: no inhibition
improvement in affinity relative to HSAYSDTRRGDYG-NH2 (TEM-1 β-lactamase [2]; TEM-1): approximately 2 fold
improvement in binding affinity relative to disulfide bonded HSACSDTRRGDCG-NH2 (TEM-1 β-lactamase [2]; TEM-1): 25 fold
Ki (TEM-1 β-lactamase [2]): 136 µM
Ki [3]: 140 µM
inhibition pattern with respect to β-lactam substrates (TEM-1 β-lactamase [4]): competitive inhibition pattern
Vmax for cephalosporin C hydrolysis (TEM-1 β-lactamase [4]; 100 μM RRGHYY—NH2): 118 ± 12 µM/min
Vmax for cephalosporin C hydrolysis (TEM-1 β-lactamase [4]; 50 μm RRGHYY—NH2): 105±5 μm/min
Km (TEM-1 β-lactamase [4]; read-out: Km for cephalosporin C hydrolysis, 100 μM RRGHYY—NH2): 1180 µM
Km (TEM-1 β-lactamase [4]; read-out: Km for cephalosporin C hydrolysis, 50 μm RRGHYY—NH2): 771 µM
Ki for Bla1 lower than the Ki for inhibition of TEM-1 β-lactamase [5]: approximately 3 fold
Ki [5]: 42 µM
inhibition pattern with respect to β-lactam substrates (Bla1 β-lactamase): competitive inhibition pattern
Vmax for PenV hydrolysis (Bla1 β-lactamase; 15 μm RRGHYY—NH2): 250±11 μm/min
Vmax for PenV hydrolysis (Bla1 β-lactamase; 30 μm RRGHYY—NH2): 243±21 μm/min
Km (Bla1 β-lactamase; read-out: Km for PenV hydrolysis, 15 μm RRGHYY—NH2): 450 µM
Km (Bla1 β-lactamase; read-out: Km for PenV hydrolysis, 30 μm RRGHYY—NH2): 609 µM
inhibition pattern with respect to β-lactam substrates (P99 β-lactamase): competitive inhibition pattern
Vmax for cephalosporin C hydrolysis (P99 β-lactamase; 50 μM RRGHYY—NH2): 590 ± 64 µM/min
Vmax for cephalosporin C hydrolysis (P99 β-lactamase; 100 μm RRGHYY—NH2): 630 ± 47 µM/min
Km (P99 β-lactamase; read-out: Km for cephalosporin C hydrolysis, 50 μM RRGHYY—NH2): 981 µM
Km (P99 β-lactamase; read-out: Km for cephalosporin C hydrolysis, 100 μm RRGHYY—NH2): 1390 µM

N=C(N)NCCC[C@H](NC(=O)[C@@H](N)CCCNC(=N)N)C(N)=O
effect on β-lactamase activity (TEM-1 β-lactamase [2]; TEM-1, concentrations up to 2.0 mM): no effect
effect on β-lactamase activity ([3]; P99, concentrations up to 2.0 mM): no effect
effect on β-lactamase activity ([5]; Bla1, concentrations up to 2.0 mM): no effect

C[C@H](N)C(=O)N[C@@H](C)C(=O)NCC(=O)N[C@@H](Cc1c[nH]cn1)C(=O)N[C@@H](Cc1ccc(O)cc1)C(=O)N[C@@H](Cc1ccc(O)cc1)C(N)=O
increase in Ki for inhibition of TEM-1 on substitution of the arginines with alanine (TEM-1 β-lactamase [2]; relative to RRGHYY): 3 fold
increase in Ki for the P99 enzyme on replacement of the arginines with alanines ([3]; relative to RRGHYY): 3 fold
increase in Ki for Bla1 on replacement of the arginines with alanines ([5]; relative to RRGHYY): two-fold

N=C(N)NCCC[C@H](N)C(=O)O
effect on β-lactamase activity (TEM-1 β-lactamase [2]; TEM-1, concentrations up to 2.5 mM): no effect

RRGHYG
binding signal on SPOT array (TEM-1 β-lactamase [6]): stronger binding signal

LRRASLG-NH2
effect on TEM-1 β-lactamase activity (TEM-1 β-lactamase [2]; concentrations up to 4 mM): no effect

C[C@H](NC(=O)[C@H](CO)NC(=O)[C@@H](N)Cc1c[nH]cn1)C(=O)N[C@H]1CSSC[C@@H](C(=O)NCC(N)=O)NC(=O)[C@H](CC(=O)O)NC(=O)CNC(=O)[C@H](CCCNC(=N)N)NC(=O)[C@H](CCCNC(=N)N)NC(=O)[C@H]([C@@H](C)O)NC(=O)[C@H](CC(=O)O)NC(=O)[C@H](CO)NC1=O
Ki (TEM-1 β-lactamase [2]; disulfide-bonded version of the peptide): 3500 µM

C[C@H](NC(=O)[C@H](CO)NC(=O)[C@@H](N)Cc1c[nH]cn1)C(=O)N[C@@H](Cc1ccc(O)cc1)C(=O)N[C@@H](CO)C(=O)N[C@@H](CC(=O)O)C(=O)N[C@H](C(=O)N[C@@H](CCCNC(=N)N)C(=O)N[C@@H](CCCNC(=N)N)C(=O)NCC(=O)N[C@@H](CC(=O)O)C(=O)N[C@@H](Cc1ccc(O)cc1)C(=O)NCC(N)=O)[C@@H](C)O
improvement in binding affinity relative to disulfide bonded HSACSDTRRGDCG-NH2 (TEM-1 β-lactamase [2]; TEM-1): approximately 10 fold
Ki (TEM-1 β-lactamase [2]): 298 µM
Ki [3]: 254 µM
Ki for Bla1 lower than the Ki for inhibition of TEM-1 β-lactamase [5]: approximately 4 fold
Ki [5]: 70 µM

Where two headings read alike, the source gives them in different places.
